A mixed list of measured activities; the numbers were collected in NIAID ChemDB.

Common to all: tests in culture; agent: HIV-1; cell line: PBL; endpoint: EC50

Lines come from different laboratories, so protocols vary. ECn is the concentration giving n% inhibition of infection, replication or growth. Blank or dashed fields: not listed here.

SMILES,strain,method,value
COc1cccc(N2CCN(c3ccc4c(=O)c(C(=O)O)cn(-c5ccc(Cn6cncn6)cc5)c4c3)CC2C)c1,,syncytia,0.25 µM
CC(=O)N[C@H](C(=O)N[C@@H](CC(C)C)C(=O)N[C@@H](CC(N)=O)C(=O)N[C@@H](Cc1ccccc1)C(N)=O)[C@@H](C)O,,syncytia,>200 µg/mL
O=C(O)c1cn(-c2cccc(N3CCOCC3)c2)c2cc(N3CCN(c4ccccc4)CC3)c(F)cc2c1=O,,syncytia,0.45 µM
Nc1ncnc2c1ncn2[C@@H]1O[C@H](COP(=O)([O-])O[C@@H]2[C@H](O)[C@@H](COP(=O)([O-])O[C@@H]3[C@H](O)[C@@H](COP([O-])(=S)O[C@@H]4[C@H](O)[C@@H](CO)O[C@H]4n4cnc5c(N)ncnc54)O[C@H]3n3cnc4c(N)ncnc43)O[C@H]2n2cnc3c(N)ncnc32)[C@@H](O)[C@H]1O,IIIB,syncytia,>300 µM
O=C(O)c1cn(-c2ccc(Cn3cncn3)cc2)c2cc(N3CCN(c4ccc(Cl)c(Cl)c4)CC3)c(F)cc2c1=O,,syncytia,0.16 µM
COC(=O)Cc1[nH]cc(-c2ccccc2)c1C(=O)OC,IIIB,p24 / ELISA,>10 µM
O=C(NCc1ccc2c(c1)[C@H](O)[C@@H](O)c1cc(CNC(=O)OCc3ccccc3)ccc1C2=O)OCc1ccccc1,,syncytia,10 µM
O=C(O)c1cn(-c2ccc(Cn3cncn3)cc2)c2cc(N3CCN(c4ccccc4)CC3)c(F)cc2c1=O,,syncytia,0.15 µM
CCNc1cccnc1N1CCN(C(=O)c2cc3cc(C(=O)OCc4ccccc4)ccc3[nH]2)CC1,,p24,0.1 µM
NC(=O)C[C@H](NC(=O)c1ccc2ccccc2n1)C(=O)N[C@@H](Cc1ccccc1)[C@@H](O)CN1CCC[C@H]1C(F)(F)F,,,>1 µM
CCCCn1c(C)c(C(=O)OC)c(C(=O)OC)c1C,IIIB,p24 / ELISA,>10 µM
O=C(O)c1cn(-c2ccccc2N2CCOCC2)c2cc(N3CCN(c4ccccc4)CC3)c(F)cc2c1=O,,syncytia,0.3 µM
CN1N=C(N)c2cn([C@@H]3O[C@H](COP(=O)(O)O)[C@@H](O)[C@H]3O)c3ncnc1c23,IIIB,RT activity,3 µM
CSCC[C@H](NC(=O)[C@H](Cc1cnc[nH]1)NC(C)=O)C(=O)N[C@H](C(=O)N[C@@H](CC(C)C)C(=O)N[C@@H](CC(N)=O)C(=O)N[C@@H](Cc1ccccc1)C(=O)O)[C@@H](C)O,,syncytia,>200 µg/mL
CCn1c(C)c(C(=O)NC)c(C(=O)NC)c1Cc1ccccc1,IIIB,p24 / ELISA,>10 µM
CSc1ccccc1N1CCN(c2ccc3c(=O)c(C(=O)O)cn(-c4ccc(Cn5cncn5)cc4)c3c2)CC1,,syncytia,0.08 µM
NC(=O)C[C@H](NC(=O)c1ccc2ccccc2n1)C(=O)N[C@@H](Cc1ccccc1)[C@H](O)C(O)CN1CCC[C@H]1C(F)(F)F,,,17 µM
CCCCn1c(C)c(C(=O)OC)c(C(=O)OC)c1Cc1ccccc1,IIIB,p24 / ELISA,>1 µM
NC(=O)C[C@H](NC(=O)c1ccc2ccccc2n1)C(=O)N[C@@H](Cc1ccccc1)[C@H](O)CN1CC[C@H]2CCCC[C@H]2[C@H]1C(F)(F)F,,,7.8 µM
Nc1nc2c(ncn2C/C=C\COCP(=O)(O)O)c(=O)[nH]1,,,>100 µM
CCn1c(C)c(C(=O)N(C)C)c(C(=O)N(C)C)c1Cc1ccccc1,IIIB,p24 / ELISA,>10 µM
O=C(O)c1cn(-c2ccc(N3CCOCC3)cc2)c2c(Cl)c(N3CCN(c4ccccc4)CC3)c(F)cc2c1=O,,syncytia,0.3 µM
CCCCCCCCN(CC(CCCCCCCCCn1c(=O)c2c(ncn2C)n(C)c1=O)OC(C)=O)C(C)=O,JR-CSF,p24,1 µM
C=C(C)OC(=O)N1c2cc(Cl)ccc2NC(=S)C1(C)C,D34,p24,0.003 µM
O=C(O)c1cn(-c2ccc(CN3CCOCC3)cc2)c2nc(N3CCN(c4ccc(F)cc4)CC3)c(F)cc2c1=O,,syncytia,0.3 µM
COc1cc(N=Nc2cc(S(=O)(=O)O)cc3cc(S(=O)(=O)O)cc(O)c23)c(C)cc1NC(=O)Nc1cc(C)c(N=Nc2cc(S(=O)(=O)O)cc3cc(S(=O)(=O)O)cc(O)c23)cc1OC,LAV-BR,p24 / ELISA,<50 µM
COc1ccccc1N1CCN(c2c(F)cc3c(=O)c(C(=O)O)cn(-c4cccc(N5CCOCC5)c4)c3c2Cl)CC1,,syncytia,0.5 µM
CC(C)[C@H](NC(=O)[C@H](Cc1cccc2ccccc12)CS(=O)(=O)C(C)(C)C)C(=O)N[C@@H](Cc1ccccc1)[C@@H](O)CN1CCC[C@H]1C(F)(F)F,,,0.558 µM
Cc1cccc(N2CCN(c3cc4c(cc3F)c(=O)c(C(=O)O)cn4-c3ccc(Cn4cncn4)cc3)CC2C)c1,,syncytia,0.08 µM
Cc1cn(C/C=C\COCP(=O)(O)O)c(=O)[nH]c1=O,,,>100 µM
CC(=O)N[C@H](C(=O)N[C@@H](CC(C)C)C(=O)N[C@@H](CC(N)=O)C(=O)N[C@@H](Cc1ccccc1)C(=O)O)[C@@H](C)O,,syncytia,>200 µg/mL
COC(=O)c1cn2c(c1C(=O)OC)Cc1cc3c(cc1C2)OCO3,IIIB,p24 / ELISA,>10 µM
O=C(O)c1cn(-c2ccc(CN3CCOCC3)cc2)c2c(Cl)c(N3CCN(c4ccccc4)CC3)c(F)cc2c1=O,,syncytia,0.015 µM
Nc1ncnc2c1ncn2C/C=C\COCP(=O)(O)O,,,9 µM
CC(C)Nc1cccnc1N(C)CCCCN(C)C(=O)c1cc2ccccc2[nH]1,,p24,>0.01 µM
COC(=O)c1c(C(=O)OC)c(Cc2ccccc2)n(C)c1C,IIIB,p24 / ELISA,>10 µM
O=C(O)c1cn(-c2ccc(Cn3cncn3)cc2)c2cc(N3CCN(c4cccc(Cl)c4)CC3)ccc2c1=O,,syncytia,0.2 µM
CN(C)Cc1ccc(-n2cc(C(=O)O)c(=O)c3ccc(N4CCN(c5ccccn5)CC4)cc32)cc1,,syncytia,0.3 µM
CC(C)C(NC[C@H](O)[C@H](Cc1ccccc1)NC(=O)[C@@H](NC(=O)[C@H](Cc1cccc2ccccc12)CS(=O)(=O)C(C)(C)C)C(C)C)C(F)(F)F,,,17.36 µM
CCOc1ccccc1N1CCN(c2ccc3c(=O)c(C(=O)O)cn(-c4ccc(Cn5cncn5)cc4)c3c2)CC1,,syncytia,0.25 µM
O=C(O)c1cn(-c2cccc(N3CCOCC3)c2)c2nc(N3CCN(c4ccccn4)CC3)c(F)cc2c1=O,,syncytia,1 µM
COC(=O)c1c(C(=O)OC)c(-c2ccccc2)n(-c2ccccc2)c1C,IIIB,p24 / ELISA,>10 µM
CN(C)Cc1ccc(-n2cc(C(=O)O)c(=O)c3cc(F)c(N4CCN(c5ccccc5)CC4)nc32)cc1,,syncytia,0.3 µM

3 of the rows above, restated:

SMILES	strain	method	value
NC(=O)C[C@H](NC(=O)c1ccc2ccccc2n1)C(=O)N[C@@H](Cc1ccccc1)[C@@H](O)CN1CCC[C@H]1C(F)(F)F			>1 µM
Nc1nc2c(ncn2C/C=C\COCP(=O)(O)O)c(=O)[nH]1			>100 µM
Nc1ncnc2c1ncn2[C@@H]1O[C@H](COP(=O)([O-])O[C@@H]2[C@H](O)[C@@H](COP(=O)([O-])O[C@@H]3[C@H](O)[C@@H](COP([O-])(=S)O[C@@H]4[C@H](O)[C@@H](CO)O[C@H]4n4cnc5c(N)ncnc54)O[C@H]3n3cnc4c(N)ncnc43)O[C@H]2n2cnc3c(N)ncnc32)[C@@H](O)[C@H]1O	IIIB	syncytia	>300 µM